A mixed list of measured activities; the numbers were collected in NIAID ChemDB.

All rows: enzyme or target tests; organism: HIV-1; protein: Protease; endpoint: inhibition

Percent inhibition refers to the dose given; in toxicity tests it is the harm to the cells.

{"smiles": "CC(C)[C@H](NC(=O)[C@H](OCc1ccccc1)[C@H](O)[C@@H](O)[C@@H](OCc1ccccc1)C(=O)N[C@H](C(=O)OCc1ccccc1)C(C)C)C(=O)OCc1ccccc1", "method": "absorbance", "tested at": "10 µM", "value": "0%"}
{"smiles": "CC(C)(C)OC(=O)NC(Cc1ccccc1)C(O)C(Cc1ccccc1)NC(=O)[C@H](CC(N)=O)NC(=O)OCc1ccccc1", "method": "fluorescence", "tested at": "0.1 µM", "value": "95%"}
{"smiles": "O=C(Nc1ccc2[nH]c(=S)sc2c1)c1ccccc1", "tested at": "150 µM", "value": "34.86%"}
{"smiles": "CCOc1ccccc1CNC(=O)[C@H]1N(C(=O)[C@@H](O)[C@H](Cc2ccccc2)NC(=O)c2cccc(O)c2C)CSC1(C)C", "method": "HPLC", "tested at": "0.05 µM", "value": "49.7%"}
{"smiles": "CC(=O)N[C@@H](Cc1ccccc1)C(O)[C@H](Cc1ccccc1)NC(C)=O", "method": "fluorescence", "tested at": "50 µM", "value": "68%"}
{"smiles": "CC1=CC(C)(C)Nc2ccc(OC(=O)c3ccco3)cc21", "tested at": "150 µM", "value": "30.33%"}
{"smiles": "COc1ccccc1CNC(=O)[C@H]1N(C(=O)[C@@H](O)[C@H](Cc2ccccc2)NC(=O)COc2c(C)cccc2C)CSC1(C)C", "method": "HPLC", "tested at": "0.05 µM", "value": "24%"}
{"smiles": "CC1=CC(C)(C)Nc2ccc(OC(=O)c3sc4cc([N+](=O)[O-])ccc4c3Cl)cc21", "tested at": "150 µM", "value": "43.07%"}
{"smiles": "O=c1c(-c2ccc(O)cc2)coc2cc(O)cc(O)c12", "method": "substrate cleavage / fluorescence", "tested at": "1000 µg/mL", "value": "75%"}
{"smiles": "CC(C)C(NC(=O)[C@@H](NC(=O)OCc1ccccc1)C(C)C)C(F)(F)C(=O)C(CC1CCCCC1)NC(=O)[C@@H](NC(=O)OCc1ccccc1)C(C)C", "method": "fluorescence", "tested at": "0.001 µM", "value": "70%"}
{"smiles": "Cc1cc(C)c(CNC(=O)[C@H]2N(C(=O)[C@@H](O)[C@H](Cc3ccccc3)NC(=O)COc3c(C)cccc3C)CSC2(C)C)c(=O)[nH]1", "method": "HPLC", "tested at": "0.05 µM", "value": "20.9%"}
{"smiles": "CC(C)[C@H](NC(=O)OCc1ccccc1)C(=O)N[C@@H](Cc1ccccc1)[C@H](O)[C@H](Cc1ccccc1)NC(=O)[C@@H](NC(=O)OCC1CCCCN1C)C(C)C", "method": "fluorescence", "tested at": "0.05 µM", "value": "49%"}
{"smiles": "Cc1cccc(C)c1OCC(=O)N[C@@H](Cc1ccccc1)[C@H](O)C(=O)N1CSC(C)(C)[C@H]1C(=O)NCc1ccncc1", "method": "HPLC", "tested at": "0.05 µM", "value": "70.7%"}
{"smiles": "CC(C)[C@H](NC(=O)OCc1ccccn1)C(=O)N[C@@H](Cc1ccccc1)[C@@H](O)[C@H](O)[C@H](Cc1ccccc1)NC(=O)[C@@H](NC(=O)OCc1ccccn1)C(C)C", "method": "fluorescence", "tested at": "0.001 µM", "value": "81%"}
{"smiles": "Cc1c(O)cccc1C(=O)N[C@@H](Cc1ccccc1)[C@H](O)C(=O)N1CSC(C)(C)[C@H]1C(=O)NC1C2CC3CC(C2)CC1C3", "method": "HPLC", "tested at": "0.05 µM", "value": "5.5%"}
{"smiles": "O=C(NCc1ccccn1)[C@H](OCc1ccccc1)[C@H](O)[C@@H](O)[C@@H](OCc1ccccc1)C(=O)NCc1ccccn1", "method": "absorbance", "tested at": "10 µM", "value": "0%"}
{"smiles": "CC(C)CC(NC(=O)[C@@H](NC(=O)OCc1ccccc1)C(C)C)C(O)C(F)(F)C(NC(=O)[C@@H](NC(=O)OCc1ccccc1)C(C)C)C(C)C", "method": "fluorescence", "tested at": "0.005 µM", "value": "45%"}
{"smiles": "CC(C)[C@@H](CO)NC(=O)[C@H](OCc1ccccc1)[C@H](O)[C@@H](O)[C@@H](OCc1ccccc1)C(=O)N[C@H](CO)C(C)C", "method": "absorbance", "tested at": "10 µM", "value": "0%"}
{"smiles": "O=C1c2cccc([N+](=O)[O-])c2C(=O)N1c1ccc2[nH]c(=S)sc2c1", "tested at": "150 µM", "value": "63.07%"}
{"smiles": "Cc1c(O)cccc1C(=O)N[C@@H](Cc1ccccc1)[C@H](O)C(=O)N1CSC(C)(C)C1C(=O)NC(C)(C)c1ccccc1", "method": "HPLC", "tested at": "0.05 µM", "value": "82.2%"}
{"smiles": "CC(C)C(C(=O)N[C@@H](Cc1ccccc1)[C@@H](O)[C@H](O)[C@H](Cc1ccccc1)NC(=O)C(C(C)C)N(C)C)N(C)C", "method": "fluorescence", "tested at": "0.005 µM", "value": "73%"}
{"smiles": "O=C(N[C@H]1c2ccccc2C[C@H]1O)[C@H](OCc1ccccc1)[C@H](O)[C@@H](O)[C@@H](OCc1ccccc1)C(=O)N[C@H]1c2ccccc2C[C@H]1O", "method": "absorbance", "tested at": "10 µM", "value": "0%"}
{"smiles": "O=c1oc2c(O)c(O)cc3c(=O)oc4c(O)c(O)cc1c4c23", "method": "substrate cleavage / fluorescence", "tested at": "1000 µg/mL", "value": "78%"}
{"smiles": "CC1=CC(C)(C)Nc2ccc(OS(=O)(=O)Cc3ccccc3)cc21", "tested at": "150 µM", "value": "40.41%"}
{"smiles": "CC(C)[C@H](NC(=O)N(C)Cc1ccccn1)C(=O)N[C@@H](Cc1ccccc1)[C@@H](O)[C@H](O)[C@H](Cc1ccccc1)NC(=O)[C@@H](NC(=O)N(C)Cc1ccccn1)C(C)C", "method": "fluorescence", "tested at": "0.001 µM", "value": "45%"}
{"smiles": "CC1(C)CC[C@]2(C(=O)O)CCC3=C(CCC4[C@@]5(C)C[C@H](O)[C@H](O)[C@@](C)(C(=O)O)C5CC[C@@]34C)C2C1", "method": "substrate cleavage / fluorescence", "tested at": "1000 µg/mL", "value": "85.8%"}
{"smiles": "O=C(NCc1ccncc1)[C@H](OCc1ccccc1)[C@H](O)[C@@H](O)[C@@H](OCc1ccccc1)C(=O)NCc1ccncc1", "method": "absorbance", "tested at": "10 µM", "value": "0%"}
{"smiles": "Cc1cccc(C)c1OCC(=O)N[C@@H](Cc1ccccc1)[C@H](O)C(=O)N1CSC(C)(C)[C@H]1C(=O)NN(C)c1ccccc1", "method": "HPLC", "tested at": "0.05 µM", "value": "15.3%"}
{"smiles": "CC(C)[C@H](NC(=O)OCc1nccs1)C(=O)N[C@@H](Cc1ccccc1)C(O)[C@H](Cc1ccccc1)NC(=O)[C@@H](NC(=O)OCc1nccs1)C(C)C", "method": "fluorescence", "tested at": "0.01 µM", "value": "63%"}
{"smiles": "COC(=O)[C@H](CC(C)C)NC(=O)[C@H](OCc1ccccc1)[C@H](O)[C@@H](O)[C@@H](OCc1ccccc1)C(=O)N[C@@H](CC(C)C)C(=O)OC", "method": "absorbance", "tested at": "10 µM", "value": "0%"}

Repeating the final 4 entries:

smiles | method | tested at | value
O=C(NCc1ccncc1)[C@H](OCc1ccccc1)[C@H](O)[C@@H](O)[C@@H](OCc1ccccc1)C(=O)NCc1ccncc1 | absorbance | 10 µM | 0%
Cc1cccc(C)c1OCC(=O)N[C@@H](Cc1ccccc1)[C@H](O)C(=O)N1CSC(C)(C)[C@H]1C(=O)NN(C)c1ccccc1 | HPLC | 0.05 µM | 15.3%
CC(C)[C@H](NC(=O)OCc1nccs1)C(=O)N[C@@H](Cc1ccccc1)C(O)[C@H](Cc1ccccc1)NC(=O)[C@@H](NC(=O)OCc1nccs1)C(C)C | fluorescence | 0.01 µM | 63%
COC(=O)[C@H](CC(C)C)NC(=O)[C@H](OCc1ccccc1)[C@H](O)[C@@H](O)[C@@H](OCc1ccccc1)C(=O)N[C@@H](CC(C)C)C(=O)OC | absorbance | 10 µM | 0%

Rows are shuffled and stem from different studies.